Assay [1] concerns the target HCV NS3/4A protease complex (BMS strain) (UniProt P27958). In words: Recombinant HCV NS3/4A protease complex FRET peptide assay (BMS strain). It counts as biochemical, Hepatitis C virus (genotype 1a. As to conditions: read-out: IC50 (uuM); NS3/4A BMS strain; activity range class.
In assay [2] the test system is HCV replicon (strain 1b) in Huh7 cells. As to conditions: Huh7 cells expressing HCV replicon, 4 days; activity range class. A general note: A replicon is a self-replicating genome or part of one, used to study replication in cells.

Amino acid sequences for entries named in this document (tags omitted). Residues count along the entry.
UniProt P27958, 1027-1657 limits assumed: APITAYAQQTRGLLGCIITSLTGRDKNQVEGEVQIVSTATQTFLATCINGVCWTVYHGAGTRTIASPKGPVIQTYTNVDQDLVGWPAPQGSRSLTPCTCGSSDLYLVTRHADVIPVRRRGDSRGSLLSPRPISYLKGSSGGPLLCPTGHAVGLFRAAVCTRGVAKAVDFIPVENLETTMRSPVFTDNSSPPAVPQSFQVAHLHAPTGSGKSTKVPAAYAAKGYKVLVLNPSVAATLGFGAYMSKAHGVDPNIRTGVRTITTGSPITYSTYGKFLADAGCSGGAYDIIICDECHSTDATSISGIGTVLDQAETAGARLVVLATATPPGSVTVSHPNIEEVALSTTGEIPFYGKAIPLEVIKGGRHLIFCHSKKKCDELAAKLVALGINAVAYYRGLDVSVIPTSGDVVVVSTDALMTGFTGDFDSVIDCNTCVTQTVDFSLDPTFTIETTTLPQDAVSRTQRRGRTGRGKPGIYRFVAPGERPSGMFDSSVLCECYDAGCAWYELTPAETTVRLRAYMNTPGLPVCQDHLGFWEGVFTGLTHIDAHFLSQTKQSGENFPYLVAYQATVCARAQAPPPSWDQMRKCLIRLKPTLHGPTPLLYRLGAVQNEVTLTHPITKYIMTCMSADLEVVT

As a reminder, the IC50 is the point on the concentration scale where inhibition reaches its midpoint. As to `C=C[C@@H]1C[C@]1(NC(=O)[C@@H]1C[C@@H](Oc2nccc3cc(OC)ccc23)CN1C(=O)[C@@H](NC(=O)OC(C)(C)C)C(C)(C)C)C(=O)NS(=O)(=O)c1sc2cc(Cl)ccc2c1C`, the half-inhibitory concentration (IC50) in assay [1] was 1000 to 10000 nM.

As a reminder, the EC50 is the concentration needed to bring the measured effect to its halfway point. Lower therefore signals a more potent agent. `C=C[C@@H]1C[C@]1(NC(=O)[C@@H]1C[C@@H](Oc2nccc3cc(OC)ccc23)CN1C(=O)[C@@H](NC(=O)OC(C)(C)C)C(C)(C)C)C(=O)NS(=O)(=O)c1ccc(OC)cc1` displayed an EC50 in assay [2] of 100 to 1000 nM. In addition, the IC50 in assay [1] is less than 100 nM. For `C=C[C@@H]1C[C@]1(NC(=O)[C@@H]1C[C@@H](Oc2nccc3cc(OC)ccc23)CN1C(=O)[C@@H](NC(=O)OC(C)(C)C)C(C)(C)C)C(=O)NS(=O)(=O)c1ccc(C)cn1`, the EC50 in assay [2] was in the range of 1000 to 10000 nM. The IC50 in assay [1] was in the range of 100 to 1000 nM.
